Only a part is listed here, and it is no random draw. The source made the active and inactive calls. Rule as the data show it: active = inhibition above about 12%; inactive = the rest.
Test: growth inhibition of E. coli expressing H. pylori AddAB, primary screen, AddAB inhibitor project, absorbance (AID 435030);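 also: 0% = vehicle wells of infected cells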
Details: at 11.9 µM, stronger effect = higher value

Compound	inhibition
CC(C)(C)C(=O)NC(Sc1ccccc1)C(Cl)(Cl)Cl (stereo not given)	inactive: 3.07%
O=P1(Nc2nc3ccc(Cl)cc3s2)COc2ccccc2O1 (stereo not given)	inactive: 4.3%
CCOc1ccc(C2=NCC(CBr)S2)cc1 (stereo not given)	inactive: -0.93%
CC(=O)Nc1ccc([As](=O)(O)O)c(O)c1	inactive: 1.19%
CC(=O)Nc1ccc(Oc2c([N+](=O)[O-])cc([N+](=O)[O-])cc2[N+](=O)[O-])cc1	inactive: -2.06%
CC(=O)c1ccc(N2CC2c2ccncc2)cc1 (stereo not given)	inactive: 1.87%
Cc1ccccc1CN(C)C(=O)COC(=O)C(O)(c1ccccc1)c1ccccc1	inactive: 2.63%
C[C@@H]1C=CCP(=O)(Oc2ccccc2)O1 (stereo not given in full)	inactive: 2.92%
C[C@H]1OP(=O)(Oc2ccccc2)C[C@@H]2O[C@@H]21 (stereo not given in full)	inactive: 1.43%
CCNC(=S)/N=C(\N)N[N+](=O)[O-]	inactive: 3.73%
O=C(NC1CCS(=O)(=O)C1)NP(=S)(Oc1ccccc1)Oc1ccccc1 (stereo not given)	inactive: -0.68%
c1ccc(-c2nn[nH]n2)c(-c2nn[nH]n2)c1	inactive: 2.31%
Cc1ccc(NP(=O)(Oc2cccc(C)c2)Oc2cccc(C)c2)nc1	inactive: 4.12%
CCOC(=O)NC(Sc1ccccc1)C(Cl)(Cl)Cl (stereo not given)	inactive: 3.32%
Cc1ccccc1OP(=O)(Nc1ccccn1)Oc1ccccc1C	inactive: -0.25%
CC(NC(=O)COC(=O)C(O)(c1ccccc1)c1ccccc1)c1ccccc1 (stereo not given)	inactive: 0.17%
CN(C)C(=O)Oc1noc2ccccc12	inactive: 3.35%
COC(=O)c1cc2c(s1)N=C(c1ccccc1)N(C)P2(=O)N1CCOCC1 (stereo not given)	inactive: 1.92%
CC(=O)NC(SC(=S)N(CC(C)C)CC(C)C)C(Cl)(Cl)Cl (stereo not given)	active: 19%
Cc1ccc(OP(=O)(Nc2ccccn2)Oc2ccc(C)cc2)cc1	inactive: 3.64%
O=C(OC1CN2CCC1CC2)c1ccccc1 (stereo not given)	inactive: 0.41%
CCC(=O)N1C2C3N(C(=O)CC)C1C1N(C(=O)CC)C(C(N1C(=O)CC)N3C(=O)CC)N2C(=O)CC	inactive: 0.84%
O=P(Nc1nc2ccccc2s1)(c1ccccc1)c1ccccc1	inactive: -0.6%
C[C@H]1OP(=O)(Oc2ccccc2)[C@H](O)[C@H](O)[C@H]1N=[N+]=[N-] (stereo not given in full)	inactive: 3.96%
O=P(Nc1ccccn1)(c1ccc(Br)cc1)c1ccc(Br)cc1	inactive: 4.91%

Compound	inhibition
CN(C)C1(CNC(=O)c2ccc(Cl)c(S(N)(=O)=O)c2)CCCCC1	inactive: -1.07%
Nc1ccc([As](=O)(O)c2ccc([N+](=O)[O-])cc2)cc1	inactive: -2.17%
C(Cc1nn[nH]n1)Cc1nn[nH]n1	inactive: 0.82%
O=C(OC1CN2CCC1CC2)c1cccc(Cl)c1 (stereo not given)	inactive: 3.56%
O=[N+]([O-])c1ccc(O)c(/C=N/Nc2ccc([N+](=O)[O-])cc2[N+](=O)[O-])c1	inactive: 2.17%
CC(=O)NC(SC(=S)N(C)C)C(Cl)(Cl)Cl (stereo not given)	inactive: -0.16%
O=[N+]([O-])c1ncn(CCn2cnc([N+](=O)[O-])n2)n1	inactive: 0.77%
O=[As](O)(c1ccccc1)c1ccc(O)cc1	inactive: 0.68%
c1nnnn1CCn1cnnn1	inactive: 5.79%
CC(C)C(=O)NC(Sc1ccccc1)C(Cl)(Cl)Cl (stereo not given)	inactive: 0.97%
O=P(Nc1nccs1)(c1ccccc1)c1ccccc1	inactive: -1.88%
O=[N+]([O-])c1cccc2n[nH]nc12	active: 71.6%
CC(=O)N1C2C3N(C(C)=O)C1C1N(C(C)=O)C(C(N1C(C)=O)N3C(C)=O)N2C(C)=O	inactive: 1.56%
Cc1ccc(NP(=O)(Oc2ccccc2)Oc2ccccc2)nc1	inactive: 2.57%
CCc1nc2c(n1)c1c(non1O)c1c2no[n+]1[O-]	inactive: 2.61%
O=[N+]([O-])c1cc([N+](=O)[O-])c(CCNc2ccccc2)c([N+](=O)[O-])c1	inactive: 0.58%
COc1ccc(C2=NCC(CBr)S2)cc1 (stereo not given)	inactive: 0.17%
CC(C)=N/N=C(\N)N[N+](=O)[O-]	inactive: 2.07%
CN(C)C(=O)OCCc1n(C)cc[n+]1C	inactive: 2.06%
CC1CCN(C(=O)Oc2c(Cl)cc(Cl)c3cccnc23)CC1	inactive: 1.29%
Nc1ccc([As](=O)(O)c2ccc(N)cc2)cc1	inactive: 1.45%
C[N+]1=C2C=CC=CC=C2SC12C([N+](=O)[O-])=CC([N+](=O)[O-])=C[C-]2[N+](=O)[O-] (stereo not given)	inactive: 4.49%
CCN(/C(=N/P(=O)(N1CCOCC1)N1CCOCC1)N1CCOCC1)c1ccc(OC)cc1	inactive: 2.42%
O=C(Nc1cc([As](=O)(O)O)ccc1O)c1ccccc1	inactive: -0.08%
O=[N+]([O-])c1cccc(NC2=NCC(CBr)S2)c1 (stereo not given)	inactive: -1.03%

Source: PubChem BioAssay AID435030 (The Scripps Research Institute Molecular Screening Center, 2010)
